PubChem BioAssay AID624099 – ICCB-Longwood – 2012

Aim: 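Human genes that papillomavirus E2 requires to repress the HPV18 LCR promoter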 (primary screen)
System: human C33A cervical carcinoma cells (HPV-negative) stably expressing BPV1 E2 and an HPV18 LCR luciferase reporter
Knock-down reagent: siRNA pool against human genes, 40 nM
Duration: 72 h
Read-out: 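Per-well luciferase luminescence, z-scored on each plate against the plate mean and SD with control wells left out, then averaged across three replicate plates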
Direction: mean z-score and z-score: higher = stronger reporter signal, weaker E2 silencing
Rule for the call: 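Hit if mean z-score reaches 2 and two or more of three replicate z-scores also reach 2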
This is an unselected part of about 21,000 deposited reagents. Over the whole deposit, 497 (2.4%) got an active call. 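Higher z means weaker E2 silencing; only reporter increases were scored, and knock-downs that hurt cell survival may mask genuine repressor factors.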 A number with no mark means an inactive call.

no.	target gene	mean z-score	z-score, replicate A	z-score, replicate B	z-score, replicate C
1	UBL3 (ubiquitin like 3)	-0.41	-0.4	-0.25	-0.58
2	OR9K2 (olfactory receptor family 9 subfamily K member 2)	0.14	-0.06	-0.02	0.49
3	ZNF542P (zinc finger protein 542, pseudogene)	-0.03	0.18	0	-0.26
4	KRT82 (keratin 82)	-0.14	-0.25	-0.34	0.18
5	RAI14 (retinoic acid induced 14)	0.12	-0.02	0.42	-0.04
6	SERPINE2 (serpin family E member 2)	0.4	0.58	0.26	0.35
7	RASGEF1B (RasGEF domain family member 1B)	0.25	0.36	0.14	0.24
8	TMEM244 (transmembrane protein 244)	-1.16	-0.89	-1.64	-0.94
9	GSTM1 (glutathione S-transferase mu 1)	1.14	0.27	1.93	1.24
10	PPP6C (protein phosphatase 6 catalytic subunit)	-0.37	-0.65	-0.27	-0.18
11	TMEM164 (transmembrane protein 164)	-0.71	-0.64	-0.6	-0.9
12	AIM2 (absent in melanoma 2)	0.5	0.46	0.54	0.5
13	ANKRD42 (ankyrin repeat domain 42)	-1.09	-1.3	-0.62	-1.35
14	PTPN2 (protein tyrosine phosphatase non-receptor type 2)	0.17	0	0.22	0.28

An excerpt from the list above:
no.	target gene	mean z-score	z-score, replicate A	z-score, replicate B	z-score, replicate C
2	OR9K2 (olfactory receptor family 9 subfamily K member 2)	0.14	-0.06	-0.02	0.49
3	ZNF542P (zinc finger protein 542, pseudogene)	-0.03	0.18	0	-0.26

The results go on:
no.	target gene	mean z-score	z-score, replicate A	z-score, replicate B	z-score, replicate C
15	LOC387943 (retired record)	-1.24	-1.36	-1.13	-1.21
16	USP17L8 (ubiquitin specific peptidase 17 like family member 8)	-2	-1.9	-2.05	-2.05
17	PEX11B (peroxisomal biogenesis factor 11 beta)	0.68	0.72	0.57	0.74
18	LYZL6 (lysozyme like 6)	-0.82	-1.13	-0.84	-0.5
19	GPC2 (glypican 2)	0.09	0.19	0.03	0.06
20	LINC00654 (long independently transcribed non-coding RNA 654)	-1.19	-1.17	-1.01	-1.39
21	KCTD3 (potassium channel tetramerization domain containing 3)	0.31	-0.3	0.63	0.6
22	ADGRB1 (adhesion G protein-coupled receptor B1)	-0.73	-0.71	-0.91	-0.56
23	GSX1 (GS homeobox 1)	1.13	1.17	1.1	
